Anti-infective test results gathered from many reports (values: NIAID ChemDB through PubChem).

Shared fields: growth or infection tests

Lines come from different laboratories, so protocols vary. A number after MIC or MFC names an inhibition level or a share of isolates. Blank or dashed fields: not listed here.

| SMILES | strain | changes | setting | method | read-out | agent | value |
|---|---|---|---|---|---|---|---|
| CCN1CCN(c2c(F)cc3c(=O)c(C(=O)O)cn(C4CC4)c3c2OC)CC1 | KD1998 (GYRA D95N) | - | - | - | MIC99 | Mycobacterium smegmatis | 1.2 µg/mL |
| CCCCn1cc(/C=N/NC(=S)NN)c2ccccc21 | 1173P2 | - | 24 h | broth dilution | MIC100 | Mycobacterium bovis BCG | >500 µg/mL |
| COc1c(N2CCNC(C)C2)c(F)cc2c(=O)c(C(=O)O)cn(C3CC3)c12 | KD1987 (GYRA A91V) | - | - | - | MIC99 | Mycobacterium smegmatis | 0.23 µg/mL |
| O=C(Nc1ccc(Cl)c(Cl)c1)c1cc(Cl)ccc1OP(=O)(c1ccccc1)c1ccccc1 | My 235/80 | - | 14 d | - | MIC | Mycobacterium kansasii | 8 µM |
| CN[C@@H]1[C@H](O[C@H]2[C@H](O[C@H]3[C@H](O)[C@@H](O)[C@H](N=C(N)N)[C@@H](O)[C@@H]3N=C(N)N)O[C@@H](C)[C@]2(O)C=O)O[C@@H](CO)[C@H](O)[C@H]1O | Isolate C-54 | - | - | - | MIC | Mycobacterium avium complex | >400 µg/mL |
| CC[C@@H](CO)NCCN[C@@H](CC)CO | 1173P2 | - | 24 h | broth dilution | MIC100 | Mycobacterium bovis BCG | 0.75 µg/mL |
| CC[C@@H](CO)NCCN[C@@H](CC)CO | 2212-4 | - | - | - | MBC | Mycobacterium avium complex | 30 µg/mL |
| CN(C)c1ccc(O)c2c1C[C@H]1C[C@H]3[C@H](N(C)C)C(=O)C(C(N)=O)=C(O)[C@@]3(O)C(=O)C1=C2O | - | - | - | broth dilution | MIC90 | Mycobacterium chelonae | 128 µg/mL |
| O=C(Nc1ccc(C(F)(F)F)cc1)c1cc(Br)ccc1OP(=O)(Oc1ccccc1)Oc1ccccc1 | My 235/80 | - | 21 d | - | MIC | Mycobacterium kansasii | 8 µM |
| CC[C@@H](C(=O)[C@@H](C)[C@@H](O)[C@H](C)[C@@H]1O[C@@H]([C@@H](CC)C(=O)O)CC[C@@H]1C)[C@H]1O[C@@]2(C=C[C@@H](O)[C@@]3(CC[C@@](C)([C@H]4CC[C@](O)(CC)[C@H](C)O4)O3)O2)[C@H](C)C[C@@H]1C | - | - | - | resazurin | MIC | Mycobacterium aurum | 0.04 µg/mL |
| Nc1ccc(S(=O)(=O)c2ccc(N)cc2)cc1 | Isolate 842 | - | - | - | MBC | Mycobacterium ulcerans | 2 µg/mL |
| CNc1ccc2oc(C[C@@H]3OC4(CC[C@@H]3C)O[C@H](C(C)C(=O)c3ccc[nH]3)[C@H](C)C[C@H]4C)nc2c1C(=O)O | - | C330 deletion | - | resazurin | MIC | Mycobacterium aurum | 0.64 µg/mL |
| O=C(Nc1ccc(Br)cc1)c1cc(Cl)ccc1OP(=O)(Oc1ccccc1)c1ccccc1 | My 235/80 | - | 14 d | - | MIC | Mycobacterium kansasii | 8 µM |
| CO[C@H]1/C=C/O[C@@]2(C)Oc3c(C)c(O)c4c(O)c(c5c(c4c3C2=O)NC2(CCN(CC(C)C)CC2)N=5)=NC(=O)/C(C)=C\C=C\[C@H](C)[C@H](O)[C@@H](C)[C@@H](O)[C@@H](C)[C@H](OC(C)=O)[C@@H]1C | 211-5 | - | - | - | MBC | Mycobacterium avium | 4 µg/mL |
| COc1cc(Cc2cnc(N)nc2N)cc(OC)c1OC | Isolate 5143 | - | - | - | MBC | Mycobacterium ulcerans | >32 µg/mL |
| CCC1CN(c2c(F)cc3c(=O)c(C(=O)O)cn(C4CC4)c3c2OC)CCN1 | KD1995 (GYRA D95H) | - | - | - | MIC99 | Mycobacterium smegmatis | 0.54 µg/mL |
| CO[C@H]1/C=C/O[C@@]2(C)Oc3c(C)c(O)c4c(O)c(c(/C=N/N5CCN(C)CC5)c(O)c4c3C2=O)NC(=O)/C(C)=C\C=C\[C@H](C)[C@H](O)[C@@H](C)[C@@H](O)[C@@H](C)[C@H](OC(C)=O)[C@@H]1C | 52 isolates | - | - | - | MIC50 | Mycobacterium avium complex | 6.25 µg/mL |
| CC1CN(c2cc3c(cc2F)c(=O)c(C(=O)O)cn3C2CC2)CC(C)N1 | KD1163 (GRYA+) | - | - | - | MIC99 | Mycobacterium smegmatis | 0.043 µg/mL |
| C[C@@H]1CN(c2c(F)c(N)c3c(=O)c(C(=O)O)cn(C4CC4)c3c2F)C[C@H](C)N1 | 30 | - | - | broth dilution | MIC | Mycobacterium avium complex | 1 µg/mL |
| O=C(Nc1ccc(C(F)(F)F)cc1)c1cc(Br)ccc1OP(=O)(OCc1ccccc1)OCc1ccccc1 | My 235/80 | - | 21 d | - | MIC | Mycobacterium kansasii | 16 µM |
| CC[C@H]1OC(=O)[C@H](C)[C@@H](O[C@H]2C[C@@](C)(OC)[C@@H](O)[C@H](C)O2)[C@H](C)[C@@H](O[C@@H]2O[C@H](C)C[C@H](N(C)C)[C@H]2O)[C@](C)(OC)C[C@@H](C)C(=O)[C@H](C)[C@@H](O)[C@]1(C)O | V206 | - | - | broth dilution | MIC | Mycobacterium abscessus | 4 µg/mL |
| CC(C)N1CCN(c2cc3c(cc2F)c(=O)c(C(=O)O)cn3C2CC2)CC1 | KD2008 (GYRA G89C) | - | - | - | MIC99 | Mycobacterium smegmatis | 7.4 µg/mL |
| Clc1ccccc1Cn1cc(/C=N/Nc2nncs2)c2ccccc21 | 1173P2 | - | 24 h | broth dilution | MIC100 | Mycobacterium bovis BCG | 7.81 µg/mL |
| O=C(Nc1ccccc1)c1ccccc1OP(=O)(c1ccccc1)c1ccccc1 | My 6509/96 | - | 21 d | - | MIC | Mycobacterium kansasii | 250 µM |
| CCC1CN(c2c(F)cc3c(=O)c(C(=O)O)cn(C4CC4)c3c2F)CCN1 | KD1991 (GYRA D95Y) | - | - | - | MIC99 | Mycobacterium smegmatis | 1.3 µg/mL |
| O=C(Nc1ccc(Br)cc1)c1cc(Cl)ccc1OP(=O)(Oc1ccccc1)Oc1ccccc1 | My 235/80 | - | 21 d | - | MIC | Mycobacterium kansasii | 16 µM |
| CC1CN(c2c(F)cc3c(=O)c(C(=O)O)cn(C4CC4)c3c2F)CC(C)N1 | KD2012 (GYRA G89A) | - | - | - | MIC99 | Mycobacterium smegmatis | 0.24 µg/mL |
| Fc1ccccc1Cn1cc(/C=N/Nc2nncs2)c2ccccc21 | 1173P2 | - | 24 h | broth dilution | MIC100 | Mycobacterium bovis BCG | 125 µg/mL |
| CCC1CN(c2cc3c(cc2F)c(=O)c(C(=O)O)cn3C2CC2)CCN1 | KD2008 (GYRA G89C) | - | - | - | MIC99 | Mycobacterium smegmatis | 3.2 µg/mL |
| NNC(=S)N/N=C/c1cn(Cc2ccccc2F)c2ccccc12 | 1173P2 | - | 24 h | broth dilution | MIC100 | Mycobacterium bovis BCG | >500 µg/mL |
| O=C(Nc1ccc(C(F)(F)F)cc1)c1cc(Cl)ccc1OP(=O)(c1ccccc1)c1ccccc1 | My 6509/96 | - | 14 d | - | MIC | Mycobacterium kansasii | 4 µM |
| CC1CN(c2c(F)cc3c(=O)c(C(=O)O)cn(C4CC4)c3c2F)CCN1 | KD1998 (GYRA D95N) | - | - | - | MIC99 | Mycobacterium smegmatis | 1.3 µg/mL |

2 of the rows above, restated:

SMILES,strain,changes,setting,method,read-out,agent,value
Fc1ccccc1Cn1cc(/C=N/Nc2nncs2)c2ccccc21,1173P2,-,24 h,broth dilution,MIC100,Mycobacterium bovis BCG,125 µg/mL
CN[C@@H]1[C@H](O[C@H]2[C@H](O[C@H]3[C@H](O)[C@@H](O)[C@H](N=C(N)N)[C@@H](O)[C@@H]3N=C(N)N)O[C@@H](C)[C@]2(O)C=O)O[C@@H](CO)[C@H](O)[C@H]1O,Isolate C-54,-,-,-,MIC,Mycobacterium avium complex,>400 µg/mL